Source: PubChem BioAssay AID624099 (ICCB-Longwood, 2012)

Screen: 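Host factors E2 relies on to silence an HPV18 LCR reporter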 (primary screen)
Cells: human C33A cervical carcinoma cells (HPV-negative) stably expressing BPV1 E2 and an HPV18 LCR luciferase reporter
Knock-down reagent: siRNA pool against human genes, 40 nM
Timing: 72 h
Read-out: 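Per-well luciferase luminescence, z-scored on each plate against the plate mean and SD with control wells left out, then averaged across three replicate plates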
Direction: mean z-score and z-score: higher = stronger reporter signal, weaker E2 silencing
Call rule: 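Hit if mean z-score reaches 2 and two or more of three replicate z-scores also reach 2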
Shown is one part, drawn at random, of about 21,000 deposited reagents. Over the whole deposit, 497 (2.4%) got an active call. 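Higher z means weaker E2 silencing; only reporter increases were scored, and knock-downs that hurt cell survival may mask genuine repressor factors.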 No sequences are given here.

For KCNJ3 the deposit lists mean z-score 0.32; z-score, replicate A = 0.62; z-score, replicate B = -0.18; z-score, replicate C = 0.51; inactive.
AQP11 showed mean z-score 1.57; z-score, replicate B = 1.51; z-score, replicate C = 1.62; inactive.
With knock-down of COL11A2 the results were mean z-score -1.06; z-score, replicate A = -0.86; z-score, replicate B = -1.11; z-score, replicate C = -1.2; inactive.
With knock-down of TRMO, the record shows mean z-score -0.55; z-score, replicate A = -0.26; z-score, replicate B = -0.64; z-score, replicate C = -0.74; inactive.
Against GDE1, the values are mean z-score 1.66; z-score, replicate A = 1.72; z-score, replicate B = 1.93; z-score, replicate C = 1.33; inactive.
After knock-down of HOXD13, the screen gave mean z-score 0.09; z-score, replicate A = -0.04; z-score, replicate B = 0.34; z-score, replicate C = -0.03; inactive.
KLHDC10 gave mean z-score 0.28; z-score, replicate A = 0.52; z-score, replicate B = 0.05; z-score, replicate C = 0.28; inactive.
Silencing of APBB1 gave: mean z-score -0.22; z-score, replicate A = -0.66; z-score, replicate B = 0.01; z-score, replicate C = -0.02; inactive.
LOC389442 (retired record) showed mean z-score 0.56; z-score, replicate A = 0.67; z-score, replicate B = 0.54; z-score, replicate C = 0.49; inactive.
After knock-down of PARP14 the results were mean z-score -0.16; z-score, replicate A = -0.38; z-score, replicate B = -0.08; z-score, replicate C = -0.02; inactive.
After knock-down of TNFRSF11B, the record shows mean z-score 0.17; z-score, replicate A = 0.22; z-score, replicate B = 0.04; z-score, replicate C = 0.25; inactive.
Silencing of MB came out at: mean z-score -1.09; z-score, replicate A = -1.13; z-score, replicate B = -0.93; z-score, replicate C = -1.22; inactive.
PRSS45P scored mean z-score -0.87; z-score, replicate A = -0.56; z-score, replicate B = -1.26; z-score, replicate C = -0.78; inactive.
Against KRT38, the values are mean z-score -1.34; z-score, replicate A = -1.41; z-score, replicate B = -1.31; z-score, replicate C = -1.3; inactive.
Against ANTXR2 the deposit lists mean z-score -0.17; z-score, replicate A = -0.43; z-score, replicate B = -0.2; z-score, replicate C = 0.1; inactive.
Against ULK3 the deposit lists mean z-score -0.62; z-score, replicate A = -0.89; z-score, replicate B = -0.59; z-score, replicate C = -0.38; inactive.
For AIP the deposit lists mean z-score -0.93; z-score, replicate A = -0.73; z-score, replicate B = -0.93; z-score, replicate C = -1.13; inactive.
With knock-down of PLA2G2E, the screen gave mean z-score -0.76; z-score, replicate A = -0.69; z-score, replicate B = -0.93; z-score, replicate C = -0.65; inactive.
Against CRCT1, the values are mean z-score -1.15; z-score, replicate A = -1.02; z-score, replicate B = -1.18; z-score, replicate C = -1.26; inactive.
CLDN4 scored mean z-score -0.77; z-score, replicate A = -0.39; z-score, replicate B = -0.66; z-score, replicate C = -1.28; inactive.
Silencing of IL17RD came out at: mean z-score -0.08; z-score, replicate A = -0.26; z-score, replicate B = -0.26; z-score, replicate C = 0.28; inactive.

3 of these entries, reformatted.
| gene | mean z-score | z-score, replicate A | z-score, replicate B | z-score, replicate C | Call |
| --- | --- | --- | --- | --- | --- |
| CRCT1 | -1.15 | -1.02 | -1.18 | -1.26 | inactive |
| CLDN4 | -0.77 | -0.39 | -0.66 | -1.28 | inactive |
| IL17RD | -0.08 | -0.26 | -0.26 | 0.28 | inactive |
